Anti-infective test results gathered from many reports (values: NIAID ChemDB through PubChem).

All rows: whole-cell or culture tests; species: HIV-1; cell line: C8166; endpoint: EC50

Neighbouring rows are from separate reports. a–b is a range or a potency band. ECn is the concentration giving n% inhibition of infection, replication or growth. An empty or dashed field is not shown.

CCN1c2ncc(CCOc3ccc(CC(=O)O)c4ccccc34)cc2C(=O)Nc2c(C)cc(Cl)nc21 ; changes: RT-K103N Y181C ; read by: p24 ; value: 0.1–1 µM
CC/C=C\C/C=C\C/C=C\C/C=C\C/C=C\CCCC(=O)O[C@@]12[C@H](O)[C@@H](C)[C@@]3(O)[C@@H](C=C(CO)C[C@]4(O)C(=O)C(C)=C[C@@H]34)[C@@H]1C2(C)C ; strain or isolate: IIIB ; read by: p24 / ELISA ; value: 0.1362 µM
COC(C(=O)O)c1c(C)nc2ccc(Cl)cc2c1-c1ccc2occc2c1 ; read by: luciferase / reporter gene ; value: <20 µM
CCN1c2ncc(CCOc3ccc(CC(C)C(=O)O)c4ccccc34)cc2C(=O)N(C)c2ccc(Cl)nc21 ; changes: RT-K103N Y181C ; read by: p24 ; value: <0.1 µM
CCN1c2ncc(CCOc3ccc(C(=O)NS(C)(=O)=O)cc3C)cc2C(=O)N(C)c2cccnc21 ; strain or isolate: IIIB ; read by: p24 ; value: 0.01–0.05 µM
C/C(=N\NC(=O)c1ccccc1)c1cn(S(=O)(=O)c2ccc(C)cc2)c2ccccc12 ; strain or isolate: IIIB ; read by: syncytia / visual reading ; value: 0.93 µg/mL
CC(=O)OC[C@H]1O[C@@H](n2cc(C)c(Oc3c(F)c(F)c(F)c(F)c3F)nc2=O)C[C@@H]1N=[N+]=[N-] ; strain or isolate: IIIB Laboratory clade B ; read by: syncytia ; value: 2 µM
CCN(CC)CCOc1ccc(NC(=O)COc2ccccc2C(=O)c2ccccc2)cc1 ; strain or isolate: RF ; read by: syncytia ; value: 0.0112 µM
COC(=O)c1cc2c(c(OC)c1-c1ccc(N(C)C)cc1)OCO2 ; strain or isolate: MN ; read by: p24 / ELISA ; value: 0.97 µg/mL
O=c1nc(-n2cncn2)ccn1[C@@H]1O[C@H](CO)[C@@H](O)[C@H]1O ; strain or isolate: IIIB Laboratory clade B ; read by: syncytia ; value: 100 µM
COc1ccc(S(=O)(=O)n2cc(/C=N/NC(=O)c3ccccc3)c3ccccc32)cc1 ; strain or isolate: IIIB ; read by: syncytia / visual reading ; value: 3.02 µg/mL
CCCC(C(=O)O)c1c(C)nc2ccc(Cl)cc2c1-c1ccc(CC)cc1 ; read by: luciferase / reporter gene ; value: <20 µM
CCN1c2ncc(CCOc3ccc(-c4cccc[n+]4[O-])cc3C)cc2C(=O)N(C)c2cccnc21 ; strain or isolate: IIIB ; read by: p24 ; value: <0.01 µM
CCN1c2ncc(CCOc3ccc(C(=O)O)c4c3CCCC4)cc2C(=O)N(C)c2ccc(C)nc21 ; strain or isolate: WT ; read by: p24 ; value: <0.1 µM
CC/C=C\C/C=C\C/C=C\C/C=C\C/C=C\C/C=C\CCC(=O)O[C@@H]1[C@@H](C)[C@@]2(O)[C@@H](C=C(CO)C[C@]3(O)C(=O)C(C)=C[C@@H]23)[C@@H]2C(C)(C)[C@]12OC(C)=O ; strain or isolate: IIIB ; read by: p24 / ELISA ; value: 0.0083 µM
Cc1cn([C@H]2C[C@H](N=[N+]=[N-])[C@@H](COP(=O)(N[C@@H](C)C(=O)OCc3ccccc3)OCC(Cl)(Cl)Cl)O2)c(=O)[nH]c1=O ; strain or isolate: RF ; read by: ELISA ; value: 0.03 µM
O=C(COc1ccc(Cl)cc1C(=O)c1ccccc1)c1cc2ccccc2[nH]1 ; strain or isolate: RF ; read by: syncytia ; value: >128 µM
CCN1c2nc(C(F)(F)F)ccc2NC(=O)c2cc(CCOc3cc[n+]([O-])c4ccccc34)cnc21 ; changes: RT-V106A ; read by: p24 ; value: 0.083 µM
CCCCCCCCCCCC(=O)N(CCCCCCCCCCC(=O)O)CC(O)C(O)C(O[C@@H]1O[C@H](CO)[C@H](O)[C@H](O)[C@H]1O)C(O)CO ; strain or isolate: LAI ; read by: syncytia ; value: <201 µM
CCN(CC)CCOc1ccc(NC(=O)COc2ccccc2C(=O)c2ccc(F)cc2)cc1 ; strain or isolate: RF ; read by: p24 ; value: <0.0862 µM
Cc1cn([C@H]2C[C@H](N=[N+]=[N-])[C@@H](COP(=O)(N[C@@H](C)C(=O)OC3CCCCC3)OCC(Cl)(Cl)Cl)O2)c(=O)[nH]c1=O ; strain or isolate: RF ; read by: ELISA ; value: 2 µM
C=C(C)[C@]1(O)C[C@@H](C)[C@@]2(O)[C@H]([C@H]1OC(=O)/C=C/C=C/CCCCC)[C@@H]1O[C@]1(CO)[C@@H](O)[C@]1(O)C(=O)C(C)=C[C@H]12 ; strain or isolate: A17 ; read by: syncytia ; value: 0.00632 µM
C[C@@H](CC(=O)NC(=O)c1c[nH]c(Cc2ccccc2)cc1=O)C(=O)O ; read by: MTT ; value: >100 µM
CC1(C)S[C@H](C(NC(=O)Cc2ccccc2)C(=O)NCCO)N[C@H]1C(=O)NCCNC(=O)[C@@H]1N[C@@H](C(NC(=O)Cc2ccccc2)C(=O)NCc2ccccc2)SC1(C)C ; strain or isolate: RF ; read by: syncytia ; value: 1.1 µM
CC(=O)OC[C@H]1O[C@@H](n2cc(C)c(-n3cncn3)nc2=O)C[C@@H]1OC(C)=O ; strain or isolate: IIIB Laboratory clade B ; read by: syncytia ; value: 40 µM
NC(=O)c1coc(Cc2ccccc2)cc1=O ; read by: MTT ; value: >100 µM
CCN1c2ncc(CCOc3ccc(C(=O)O)c4c3CCN(S(=O)(=O)N(C)C)C4)cc2C(=O)N(C)c2cccnc21 ; strain or isolate: WT ; read by: p24 ; value: <0.1 µM
C#CCOC(C(=O)O)c1c(C)nc2ccc(Br)cc2c1-c1ccc(Cl)cc1 ; read by: luciferase / reporter gene ; value: <20 µM
COc1cc2c(c(OC)c1OC)-c1c(cc(O)c(OC)c1O)C[C@@H](C)[C@@H](C)C2 ; read by: MTT ; value: 2.2 µg/mL
O=c1cc(-c2cccc3c2Sc2ccccc2S3)oc(N2CCOCC2)c1 ; strain or isolate: RF ; read by: cytopathic effect / XTT ; value: 3.8 µM
CCN1C(=O)NC(=O)C(C(C)C)C1CC1CC(C)CC(C#N)C1=O ; changes: V106M ; read by: p24 / ELISA ; value: 0.09031 µM
CCN1c2ncc(CCOc3ccc4cc(CC(=O)NN)ccc4c3)cc2C(=O)N(C)c2cccnc21 ; strain or isolate: WT ; read by: p24 ; value: <0.1 µM
Cc1nc2ccc(Cl)cc2c(-c2cccc3ccccc23)c1C(OC(C)C)C(=O)O ; read by: luciferase / reporter gene ; value: <20 µM
Cc1cc(C)cc(S(=O)(=O)c2c(C(=O)NCCO)[nH]c3ccc(Cl)cc23)c1 ; strain or isolate: IIIB WT ; read by: p24 ; value: <0.005 µM
CCCCCCCCCCCCCC(=O)O[C@@H]1[C@@H](C)[C@@]2(O)[C@@H](C=C(COC(C)=O)C[C@]3(O)C(=O)C(C)=C[C@@H]23)[C@@H]2C(C)(C)[C@]12O ; strain or isolate: IIIB ; read by: p24 / ELISA ; value: 4.415 µM
COC(=O)[C@H](C)NP(=O)(OC[C@H]1O[C@@H](n2cc(C)c(=O)[nH]c2=O)C[C@@H]1N=[N+]=[N-])Oc1ccccc1 ; strain or isolate: RF ; read by: ELISA ; value: 0.2 µM
CCN1c2ncc(CCOc3ccc(NC(=O)CCC(=O)O)cc3C)cc2C(=O)N(C)c2cccnc21 ; strain or isolate: IIIB ; read by: p24 ; value: 0.01–0.05 µM
Cc1cc(C)cc(S(=O)(=O)c2c(C(=O)/C=C/C(N)=O)[nH]c3ccc(Cl)cc23)c1 ; strain or isolate: IIIB ; changes: RT-Y181C ; read by: p24 ; value: 0.6 µM
CC(=O)c1ccc(-c2c(C(OC(C)C)C(=O)O)c(C)nc3ccc(Cl)cc23)cc1 ; read by: luciferase / reporter gene ; value: <20 µM
Cc1cn([C@H]2C[C@H](N=[N+]=[N-])[C@@H](CO)O2)c(=O)[nH]c1=O ; strain or isolate: RF ; read by: p24 ; value: 0.00648 µg/mL
Cc1ccccc1CNC(=O)COc1ccc(Cl)cc1C(=O)c1ccccc1 ; strain or isolate: RF ; read by: p24 ; value: 0.0813 µM
CCOCn1c2c(c(=O)[nH]c1=O)Cc1ccccc1C2 ; strain or isolate: IIIB ; value: >5 µM
CCCC(C(=O)O)c1c(C)nc2ccc(Cl)cc2c1-c1ccc(Cl)s1 ; read by: luciferase / reporter gene ; value: <20 µM
CCCCCCCCC(=O)O[C@@]12[C@H](OC(=O)/C=C/c3ccc(F)cc3)[C@@H](C)[C@@]3(O)[C@@H](C=C(CO)C[C@]4(O)C(=O)C(C)=C[C@@H]34)[C@@H]1C2(C)C ; strain or isolate: IIIB ; read by: p24 / ELISA ; value: 0.0029 µM
CC(=O)Nc1ccc(S(=O)(=O)n2cc(/C=N/NC(=O)c3ccccc3)c3ccccc32)cc1 ; strain or isolate: IIIB ; read by: syncytia / visual reading ; value: 1.71 µg/mL
CCN1c2ncc(CCOc3ccc(-c4ccc(CC(=O)O)cc4)cc3C)cc2C(=O)Nc2c(C)ccnc21 ; changes: RT-K103N Y181C ; read by: p24 ; value: 0.01–0.05 µM
O=C1N[C@H](Cc2ccccc2)C(=O)NC1Cc1c[nH]c2c([C@]34C[C@H]5C(=O)N[C@H](Cc6ccccc6)C(=O)N5[C@H]3Nc3ccccc34)cccc12 ; read by: MTT ; value: 98.9 µM
CC/C(=N\NC(=O)c1ccccc1)c1cn(S(=O)(=O)c2ccccc2)c2ccccc12 ; strain or isolate: IIIB ; read by: syncytia / visual reading ; value: 14.53 µg/mL
CCCCCCCCC(=O)O[C@@]12[C@H](OC(=O)/C=C/c3ccc4c(c3)OCO4)[C@@H](C)[C@@]3(O)[C@@H](C=C(CO)C[C@]4(O)C(=O)C(C)=C[C@@H]34)[C@@H]1C2(C)C ; strain or isolate: IIIB ; read by: p24 / ELISA ; value: 0.0048 µM
CCN1c2ncc(CCOc3ccc(CC(=O)O)c4c3CCCC4)cc2C(=O)N(C)c2ccc(F)nc21 ; changes: RT-K103N Y181C ; read by: p24 ; value: <0.1 µM
Cc1nc2ccc(Cl)cc2c(-c2ccc(CO)cc2)c1C(OC(C)C)C(=O)O ; read by: luciferase / reporter gene ; value: <20 µM
CCN1c2ncc(CCOc3ccc(/C=C(\C)C(=O)O)c4ccccc34)cc2C(=O)N(C)c2ccc(C)nc21 ; changes: RT-K103N Y181C ; read by: p24 ; value: <0.1 µM
CCN1c2ncc(CCOc3ccc(-c4ccc(C(=O)O)s4)cc3)cc2C(=O)N(C)c2cccnc21 ; strain or isolate: IIIB ; read by: p24 ; value: 0.01–0.05 µM
C/C(=N\NC(=O)c1ccccc1)c1cn(S(=O)(=O)c2ccccc2)c2ccccc12 ; strain or isolate: IIIB ; read by: syncytia / visual reading ; value: 0.52 µg/mL
CCN1c2ncc(CCOc3ccc(CC(C)C(=O)O)c4ccccc34)cc2C(=O)N(C)c2ccc(C)nc21 ; strain or isolate: WT ; read by: p24 ; value: <0.1 µM

Again, the opening 7 rows:

| smiles | strain or isolate | changes | read by | value |
|---|---|---|---|---|
| CCN1c2ncc(CCOc3ccc(CC(=O)O)c4ccccc34)cc2C(=O)Nc2c(C)cc(Cl)nc21 |  | RT-K103N Y181C | p24 | 0.1–1 µM |
| CC/C=C\C/C=C\C/C=C\C/C=C\C/C=C\CCCC(=O)O[C@@]12[C@H](O)[C@@H](C)[C@@]3(O)[C@@H](C=C(CO)C[C@]4(O)C(=O)C(C)=C[C@@H]34)[C@@H]1C2(C)C | IIIB |  | p24 / ELISA | 0.1362 µM |
| COC(C(=O)O)c1c(C)nc2ccc(Cl)cc2c1-c1ccc2occc2c1 |  |  | luciferase / reporter gene | <20 µM |
| CCN1c2ncc(CCOc3ccc(CC(C)C(=O)O)c4ccccc34)cc2C(=O)N(C)c2ccc(Cl)nc21 |  | RT-K103N Y181C | p24 | <0.1 µM |
| CCN1c2ncc(CCOc3ccc(C(=O)NS(C)(=O)=O)cc3C)cc2C(=O)N(C)c2cccnc21 | IIIB |  | p24 | 0.01–0.05 µM |
| C/C(=N\NC(=O)c1ccccc1)c1cn(S(=O)(=O)c2ccc(C)cc2)c2ccccc12 | IIIB |  | syncytia / visual reading | 0.93 µg/mL |
| CC(=O)OC[C@H]1O[C@@H](n2cc(C)c(Oc3c(F)c(F)c(F)c(F)c3F)nc2=O)C[C@@H]1N=[N+]=[N-] | IIIB Laboratory clade B |  | syncytia | 2 µM |